Results of unrelated studies side by side (data: NIAID ChemDB).

Common to all: tests in culture; organism: HIV-1

Blank or dashed fields: not listed here. ECn is the concentration giving n% inhibition of infection, replication or growth. Rows are shuffled and stem from different studies. Two numbers with a dash give a range or band.

compound	cells	strain or isolate	endpoint	read by	changes	value
C/C=C\COc1cc(NC(=S)OC(C)C)ccc1OC	CEM	-	EC50	syncytia	RT-V106A	6.77 µM
CCC(=O)c1ccc2c(c1)sc(=O)n2Cc1ccccc1	CEM	IIIB	EC50	syncytia	-	>8 µg/mL
COC(=O)c1cc(NC(=S)OC(C)C)ccc1Cl	CEM	-	EC50	syncytia	RT-Y181C	≥34.75 µM
Cn1cc(C(=O)O)c(=O)c2cc(F)c(N3CC=C(c4ccccc4)CC3)c(C(F)(F)F)c21	MOLT-4	IIIB	EC50	ELISA	-	74 µM
CCN(CC)C(=O)OCC1CN(Cc2cc(OC)c(OC)c(OC)c2)CCN1Cc1cc(OC)c(OC)c(OC)c1	MDM	BaL	EC50	RT activity	-	<10 µM
Cc1ccccc1OC(=O)c1cc(NC(=S)OC(C)C)ccc1Cl	CEM	-	EC50	syncytia	RT-L100I	15.1 µM
CCCCC(=O)c1ccc2c(c1)oc(=O)n2CCN1CCOCC1	CEM	IIIB	EC50	syncytia	-	>8 µg/mL
CC1=C(C(=O)Nc2ccc(Cl)c(C(=O)OC(C)C)c2)SCCO1	CEM	IIIB	EC50	syncytia	-	0.0421 µM
Cc1ccc(-n2nnnc2SCC(=O)Nc2ccccc2Cl)cc1	MT-4	-	EC95	p24	-	<10 µM
CCc1c(Cc2cc(C)cc(C)c2)n(COCC#Cc2ccccc2C(F)(F)F)c(=O)[nH]c1=O	MT-4	IIIB	EC50	MTT	K103N + Y181C	15 µM
CCCSC(=Nc1ccc(Cl)c(C(=O)OC(C)C)c1)OC(C)C	CEM	-	EC50	syncytia	RT-L100I	27.78 µM
CCc1c(Cc2ccccc2C)n(COC/C(Br)=C(\Br)c2ccccc2)c(=O)[nH]c1=O	MT-4	IIIB	EC50	MTT	Y181C	8 µM
Nc1cc2c(=O)c(C(=O)O)cn(C3CC3)c2cc1N1CCN(c2ccccn2)CC1	MT-4	IIIB	EC50	cytopathic effect / MTT	-	1.17 µM
CCCCC(CC)COC(=O)c1cc(NC(=S)OC(C)C)ccc1Cl	CEM	-	EC50	syncytia	RT-V106A	25.91 µM
C[C@@H]1CN(C(=O)c2ccccc2)CCN1C(=O)C(=O)c1c[nH]c2ccccc12	Cf2Th-CD4+ CCR5+/293T	YU2 WT	EC50	syncytia	-	9 µM
O=C(c1cccc(F)c1)c1ccc2[nH]c(=O)oc2c1	CEM	IIIB	EC50	syncytia	-	>8 µg/mL
CCc1c(Cc2cc(C)cc(C)c2)n(COCC#Cc2ccc(CO)cc2)c(=O)[nH]c1=O	MT-4	IIIB	EC50	MTT	Y181C	1 µM
CC(C)COC(=O)c1cc(NC(=S)OC(C)C)ccc1Cl	CEM	-	EC50	syncytia	RT-V106A	2.577 µM
CC(=O)c1ccc(NC(=O)CSc2nnnn2-c2c(C)cc(C)cc2C)cc1	MT-4	-	EC95	p24	-	<10 µM
CCc1c(Cc2cc(C)cc(C)c2)n(COCC#Cc2cccc(O[Si](c3ccccc3)(c3ccccc3)C(C)(C)C)c2)c(=O)[nH]c1=O	MT-4	IIIB	EC50	MTT	WT	0.5 µM
CCCOC(=O)c1cc(NC(=S)OC(C)C)ccc1Cl	CEM	-	EC50	syncytia	RT-E138K	1.424 µM
CN(CC(=O)Nc1ccccc1[N+](=O)[O-])c1nnnn1-c1cccc2ccccc12	MT-4	-	EC95	p24	-	<10 µM
CC(C)CN(C[C@@H](O)[C@H](Cc1ccccc1)NC(=O)O[C@H]1CO[C@H]2OCC[C@H]21)S(=O)(=O)c1ccc2nc(NC3CCN(C4CCCC4)CC3)sc2c1	MT-4	LAI	EC50	reporter gene	-	14.2 nM
CO/N=C/c1cc(NC(=S)OC(C)C)ccc1Cl	CEM	-	EC50	syncytia	RT-V106A	20.92 µM
CCN1c2ncc(CCOc3ccc(C(=O)N(C)c4ccc(C(=O)O)cc4)cc3C)cc2C(=O)N(C)c2cccnc21	C8166	-	EC50	p24	RT-K103N Y181C	0.01–0.05 µM
CNc1cc2c(=O)c(C(=O)O)cn(C)c2cc1N1CCN(c2cccc(C(F)(F)F)c2)CC1	MT-4	IIIB	EC50	cytopathic effect / MTT	-	>6.32 µM
Cc1cc(C)c(-n2nnnc2OCC(=O)Nc2ccccc2[N+](=O)[O-])c(C)c1	MT-4	-	EC50	p24	-	<10 µM
C=CCOc1cc(NC(=S)OC(C)C)ccc1C#N	CEM	IIIB	EC50	syncytia	-	0.181 µM
Cc1cc(-c2ccc[n+]([O-])c2)ccc1OCCc1cnc2c(c1)C(=O)N(C)c1cccnc1N2C1CC1	C8166	-	EC50	p24	RT-K103N Y181C	0.01–0.05 µM
CCN(CC)C(=O)OCC1CN(Cc2ccccc2)CCN1C(=O)c1cc(OC)c(OC)c(OC)c1	MDM	BaL	EC50	RT activity	-	13 µM
CO/N=C(\C)COc1cc(NC(=S)OC(C)C)ccc1Cl	CEM	IIIB	EC50	syncytia	-	0.212 µM
O=c1[nH]c2ccc(Cc3cccc(F)c3)cc2s1	CEM	IIIB	EC50	syncytia	-	>1.6 µg/mL
CCN1c2ncc(CCOc3ccc(-c4ccc(CC(=O)O)cc4)cc3C)cc2C(=O)Nc2c(C)ccnc21	C8166	IIIB	EC50	p24	-	0.01–0.05 µM
COc1cc([N+](=O)[O-])c(S(=O)(=O)[O-])cc1N=N/C(=N\Nc1cc(S(=O)(=O)[O-])c([N+](=O)[O-])cc1OC)C(=O)Nc1ccccc1	MT-2	IIIB X4	EC50	p24	-	23.59 µM
CCc1c(Cc2cc(C)cc(C)c2)n(COCC#Cc2cnccn2)c(=O)[nH]c1=O	MT-4	IIIB	EC50	MTT	EFV-resistant (K103R V179D P225H)	14 µM
CCOC(=O)C(C)Oc1cc(NC(=S)OC(C)C)ccc1Cl	CEM	-	EC50	syncytia	RT-E138K	5.783 µM
O=C(c1cccc(F)c1)c1ccc2c(c1)oc(=O)n2CCN1CCCCC1	CEM	IIIB	EC50	syncytia	-	5.8 µg/mL
CC(C)OC(=O)c1cc(NC(=S)OC(C)(C)C)ccc1Cl	CEM	-	EC50	syncytia	RT-E138K	16.67 µM
CCN(CC)C(=O)OCC1CNCCN1C(=O)c1cc(OC)c(OC)c(OC)c1	MDM	BaL	EC50	RT activity	-	>100 µM
CC(C)=CCOc1cc(NC(=S)c2ccsc2C)ccc1Cl	CEM + CEM-SS	NL4-3	EC50	p24	RT-V108I	0.006 µM
O=C(O)c1cn(C2CC2)c2nc(N3CCN(c4nc5ccccc5s4)CC3)ccc2c1=O	MT-4	IIIB	EC50	cytopathic effect / MTT	-	0.05 µM
CCN1c2ncc(CCOc3ccc(-c4cccc(C(=O)O)c4)cc3)cc2C(=O)N(C)c2cccnc21	C8166	-	EC50	p24	RT-K103N Y181C	0.01–0.05 µM
CCc1c(Cc2cc(C)cc(C)c2)n(COCC#Cc2cccc(C=O)c2)c(=O)[nH]c1=O	MT-4	IIIB	EC50	MTT	K103N + Y181C	6.4 µM
C=CCOC(=S)Nc1ccc(Cl)c(C(=O)OC(C)C)c1	CEM	-	EC50	syncytia	RT-E138K	7.01 µM
CN(C)n1cc(C(=O)O)c(=O)c2cc(N)c(N3CCN(c4ccccn4)CC3)cc21	MT-4	IIIB	EC50	cytopathic effect / MTT	-	>1.15 µM
CC(C)OC(=O)c1cc(NC(=S)OCC2(C)COC2)ccc1Cl	CEM	IIIB	EC50	syncytia	-	>27.94 µM
CCN(CC)C(=O)OCC1CN(C(=O)c2ccc(OC)c(OC)c2)CCN1C(=O)c1ccc(OC)c(OC)c1	MDM	BaL	EC50	RT activity	-	>10 µM
CCOC(=O)COc1cc(NC(=S)OC(C)C)ccc1Cl	CEM	-	EC50	syncytia	RT-L100I	15.06 µM
CCOCn1c(Cc2ccccc2)c(C(C)C)c(=O)[nH]c1=O	MT-4	-	EC50	MTT	Y181C resistant	20 µM
CC(C)OC(=S)Nc1ccc(Cl)c(C(=O)OCC[Si](C)(C)C)c1	CEM	-	EC50	syncytia	RT-Y181C	4.813 µM
Cc1cc2ccccc2c(-c2ccc3c4c(ccnc24)CCO3)c1[C@H](OC(C)(C)C)C(=O)O	PBMC	NL4-3	EC50	p24	-	0.014 µM